# Results: article PMC5388508, “Effects of the RGD loop and C-terminus of rhodostomin on regulating integrin αIIbβ3 recognition” (2017)
# Read-outs that look alike come from different tables or passages of the source.
# Key:
# [1] = target: integrin αIIbβ3 of human platelets (human (endogenous in platelets)) (UniProt P08514)
# [2] = target: integrin αIIbβ3 of human platelets (human (endogenous in platelets)) (UniProt P08514); remark: listed apart in the source
Substance,IC50 of inhibition of platelet aggregation [1] [nM],IC50 of inhibition of platelet aggregation [2] [nM]
Rho ^48ARGDWN-^65PR mutant (domain or fragment),171,–
Rho ^48ARGDWN-^65PRY mutant (domain or fragment),155,–
Rho ^48PRGDMP-^65PR mutant (domain or fragment),–,155
